{"source": "paper PMC12604490", "about": "“Dual immunomodulatory and antileishmanial potential of TLR7/8 agonists against Leishmania donovani” (Infection and Immunity, 2025)", "key": {"HeLa cells": {"tested_on": "HeLa cells", "test": "Cytotoxicity on HeLa cells (MTT, 48 h)", "format": "cell-based, human", "details": "for HeLa cell SI (antiamastigote): CC50 HeLa / IC50 amastigotes; for HeLa cell SI (antipromastigote): CC50 HeLa / IC50 promastigotes", "protocol": "HeLa cells (human cervical epithelial cell line) were grown in RPMI-1640 (HiMedia) with 10% FBS and cultured at 37°C (5% CO2). The cells were evaluated daily using an inverted microscope for any contamination and subcultured after reaching confluency ([21]).\n(§1) The cytotoxicity studies were performed using an immune cell line (RAW 264.7 macrophage) and non-immune epithelial cell line (HeLa) by 3-(4,5-dimethylthiazol-2-yl)-2,5-diphenyltetrazolium bromide (MTT) assay. A total of 7,000–10,000 cells/well were supplemented with different concentrations (2–64 μg/mL) of TLR7/8 agonists and incubated for 48 hours. MTT (1 mg/mL) (Hi-Media) was added to each well and kept for 4 hours. The formazan crystals formed were dissolved in 100 µL of dimethyl ulfoxide (DMSO), and absorbance at 550 nm was recorded using a microreader. AmB, MF, and Resiquimod were used as reference drugs. The percentage of cytotoxicity was calculated as [(absorbance of treated well − absorbance of blank) / (absorbance of untreated well − absorbance of blank)] × 100. The CC50 value was calculated with SPSS software. The SI of TLR7/8 agonists was obtained by calculating the ratio of CC50 (RAW 264.7 macrophage and HeLa cells) and IC50 (antipromastigote and antiamastigotes) ([21], [23])."}, "RAW 264.7 macrophages": {"tested_on": "RAW 264.7 macrophages", "test": "Cytotoxicity on RAW 264.7 macrophages (MTT, 48 h)", "format": "cell-based", "details": "for RAW macrophage SI (antiamastigote): CC50 RAW 264.7 / IC50 amastigotes; for RAW macrophage SI (antipromastigote): CC50 RAW 264.7 / IC50 promastigotes", "protocol": "To evaluate the cytotoxicity and antiamastigote assay, RAW 264.7 macrophages were cultured in Dulbecco’s modified Eagle medium (HiMedia, India), 10% heat-inactivated fetal bovine serum (FBS, Biowest) and cultured at 37°C (5% CO2). The macrophage cell growth was evaluated daily, and the cells were subcultured into a new flask containing fresh cell culture medium once they reached about 80%–90% confluency.\nas §1"}}}
{"smiles": "C[C@@H]1[C@H](O)[C@@H](C)/C=C/C=C/C=C/C=C/C=C/C=C/C=C/[C@H](O[C@@H]2O[C@H](C)[C@@H](O)[C@H](N)[C@@H]2O)C[C@@H]2O[C@](O)(C[C@@H](O)C[C@@H](O)[C@H](O)CC[C@@H](O)C[C@@H](O)CC(=O)O[C@H]1C)C[C@H](O)[C@H]2C(=O)O", "note": "[Amphotericin B, amphotericin B, reference compound]", "values": [{"measurement": "HeLa cell SI (antiamastigote)", "setting": "HeLa cells", "value": 80.5}, {"measurement": "RAW macrophage SI (antiamastigote)", "setting": "RAW 264.7 macrophages", "value": 95.75}, {"measurement": "RAW macrophage SI (antipromastigote)", "setting": "RAW 264.7 macrophages", "value": 147.3}]}
{"smiles": "CCCCCCCCCCCCCCCCOP(=O)([O-])OCC[N+](C)(C)C", "note": "[Miltefosine, miltefosine, reference compound]", "values": [{"measurement": "HeLa cell SI (antiamastigote)", "setting": "HeLa cells", "value": 5.86}, {"measurement": "HeLa cell SI (antipromastigote)", "setting": "HeLa cells", "value": 8.27}, {"measurement": "RAW macrophage SI (antiamastigote)", "setting": "RAW 264.7 macrophages", "value": 7.58}, {"measurement": "RAW macrophage SI (antipromastigote)", "setting": "RAW 264.7 macrophages", "value": 10.69}]}
{"smiles": "CCCCc1nc2c(N)nc3ccccc3c2n1Cc1ccc(CO)cc1", "note": "[compound 4]", "values": [{"measurement": "HeLa cell SI (antiamastigote)", "setting": "HeLa cells", "value": 0.64}, {"measurement": "HeLa cell SI (antipromastigote)", "setting": "HeLa cells", "value": 0.73}, {"measurement": "RAW macrophage SI (antiamastigote)", "setting": "RAW 264.7 macrophages", "value": 0.91}, {"measurement": "RAW macrophage SI (antipromastigote)", "setting": "RAW 264.7 macrophages", "value": 1.03}]}
